PubChem BioAssay AID504761 | Drosophila RNAi Screening Center | 2011
Screen: 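Fly genes whose silencing reduces dengue virus type 2 infection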 (primary screen). Cell system: D.Mel-2 cells from Drosophila. Reagent: long dsRNA against Drosophila genes. Treatment: infection with dengue virus type 2; dose and infection time not stated. Measurement: 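Cells stained for dengue envelope protein and imaged; percent of infected cells per well on duplicate plates, ranked by infection, with stained nuclei counted for cell number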. Direction: infection score: higher = more virus-infected cells; cell count: higher = more cells in the well. Active means: 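Low infection ranks in the two replicates (chance level up to 0.065) followed by a retest with a 1.5-fold or larger significant decrease, p below 0.05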. Meaning of the calls: active = confirmed: knock-down lowers infection; inactive = not picked or not confirmed.
The screen tested about 22,000 reagents; below is an unselected part of those with a known target gene and a result. In the full data, 116 (0.52%) got an active call. 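Calls depend on retest data that are not deposited; infection was ranked per plate without normalising between plates; the unit of the infection score is not given.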 Raw values vary from plate to plate and are shown uncorrected. Entries without a mark were called inactive. Names joined by + are all predicted targets of the reagent. Further read-outs or replicates are left out here. The record does not give: the amount of reagent, the time to read-out.

no.	Gene	DRSC id	infection score, replicate 1	infection score, replicate 2	cell count, replicate 1
1	CG15550	DRSC15088	6.03		6417
2	CG15550	DRSC29401	9.74		1170
3	sw + Sdic4 + Sdic3 + 2 more	DRSC20696	1.7	0.83	5167
4	sw + Sdic4 + Sdic3 + 2 more	DRSC29154	19.2	0.31	3542
5	CG32457	DRSC21722	21.2	5.25	3453
6	CG32213 + CG12519 + 825-Oak + 1 more	DRSC09615	1.52	0.39	6363
7	CG15279	DRSC01935	13.5	27.7	6178
8	CG15279	DRSC27347	24.1	21.1	6648
9	CG17359	DRSC10265	1.61	7.3	5841
10	CG17359	DRSC24439	2.17	2.14	6356
11	CG31219	DRSC15140	5.09	6.65	6922
12	Nrk	DRSC07480	19.4	12.1	5424
13	mira	DRSC16998	5.25	2.56	6672
14	mira	DRSC26837	5.53	7.36	5845
15	CG33281	DRSC00421	15.8	3.33	6728
16	ccb	DRSC20501	3.06	3.14	4667
17	Nin	DRSC02007	2.93	0.94	5733
18	Rab21	DRSC20968	1.02	1.24	5705
19	Rab21	DRSC28617	19.6	14.9	5919
20	Ir67b	DRSC09876	1.22	1.66	5884
21	kek4	DRSC03220	7.83	2.68	6681
22	Alg10	DRSC10892	2.8	1.42	5708
23	CG10183	DRSC14203	5.84	13.5	3097
24	CG10183	DRSC25343	2.68	9.37	6821
25	PAN3	DRSC08190	6.92	11.4	6081
26	PAN3	DRSC25366	3.33	6.35	5796
27	RpL28 + snoRNA:Or-CD12	DRSC08293	1.3	4.62	3930
28	ph-d	DRSC23191	2.84	6.4	5917
29	ph-d	DRSC29736	15	13.7	6238
30	Tim10 + CG42497	DRSC04664	3.49	15.8	7104
31	CG15083	DRSC06514	0.58	1.3	6351
32	Dnah3	DRSC08130	0.35	0.79	5700
33	Dnah3	DRSC08513	1.75	1.23	6129
34	Dnah3	DRSC28789	10.2	9.32	2599
35	CG31391	DRSC16047	13.1	7.28	5798
36	CG14937	DRSC02419	9.99	6.61	6495
37	CG6785	DRSC02993	10.9	2.82	6120
38	CG6785	DRSC25446	8.2	7.14	6046
39	kin17	DRSC11890	12.9	8.81	5855
40	kin17	DRSC26821	9.89	1.66	6529
41	CG13917	DRSC08386	1.92	4.92	6352
42	CG13917	DRSC26895	7.48	6.81	6444
43	CG13323	DRSC06360	8.61	18.4	7340
44	robo2	DRSC00377	2.2	6.26	6694
45	robo2	DRSC00378	12.2	8.49	6942
46	robo2	DRSC00686	13.3	12.2	7242
47	robo2	DRSC00691	3.21	11	6384
48	Vm26Aa	DRSC03472	3.43	14	6096
49	Vm26Aa	DRSC25243	0.7	3.65	6310
50	mu2	DRSC08726	19.4	11.9	4746
51	mu2	DRSC21534	0.75	2.61	5997
52	CR32028 (retired record)	DRSC22959	1.09	4.51	6431
53	CR32028 (retired record)	DRSC25400	2.55	1.48	6149
54	Orc2	DRSC16776	10.3	14.1	6735
55	CG32374	DRSC10986	3.87	4.31	6050
56	CG10927	DRSC06014	14.3	13.7	6244
57	CG10927	DRSC29800	4.43	9.21	6119
58	betaCOP	DRSC20312	2.36	0.75	2123
59	betaCOP	DRSC27169	1.82	1.46	713

9 entries already listed, sorted by “cell count, replicate 1”, ascending:
Gene	DRSC id	infection score, replicate 1	infection score, replicate 2	cell count, replicate 1
mu2	DRSC08726	19.4	11.9	4746
mu2	DRSC21534	0.75	2.61	5997
Vm26Aa	DRSC03472	3.43	14	6096
CR32028 (retired record)	DRSC25400	2.55	1.48	6149
Vm26Aa	DRSC25243	0.7	3.65	6310
robo2	DRSC00691	3.21	11	6384
CR32028 (retired record)	DRSC22959	1.09	4.51	6431
robo2	DRSC00378	12.2	8.49	6942
robo2	DRSC00686	13.3	12.2	7242
